Measured values published in the supplement of paper PMC9931576.
Human monoclonal antibodies against the spike receptor-binding domain (heavy:light variable regions). IC50 against pseudoviruses bearing the spike of naturally observed variants; lower = stronger; >10 µg/ml means not reached at the top dose. No active / inactive call. The stated detection limit is 0.0005 µg/ml; values near or below 0.001 µg/ml lie at the floor of the assay.

Key:
Test in all cases: pseudovirus neutralization IC50; higher = weaker neutralization
[1] = target: SARS-CoV-2 Omicron BA.1 spike pseudovirus
Experimental: (§1)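 Single-round VSV luciferase pseudovirus mixed with antibody dilutions for 1 h and put on Huh-7 cells for about a day; IC50 from the dose curve.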

[2] = target: SARS-CoV-2 Omicron BA.2 spike pseudovirus
Experimental: as §1

[3] = target: SARS-CoV-2 Omicron BA.2.75 spike pseudovirus
Experimental: as §1

[4] = target: SARS-CoV-2 Omicron BA.2.75.2 spike pseudovirus
Experimental: as §1

[5] = target: SARS-CoV-2 Omicron BA.5 spike pseudovirus
Experimental: as §1

[6] = target: SARS-CoV-2 Omicron BM.1.1.1 spike pseudovirus
Experimental: as §1

[7] = target: SARS-CoV-2 Omicron BQ.1.1 spike pseudovirus
Experimental: as §1

[8] = target: SARS-CoV-2 Omicron BR.2 spike pseudovirus
Experimental: as §1

[9] = target: SARS-CoV-2 Omicron CA.1 spike pseudovirus
Experimental: as §1

[10] = target: SARS-CoV-2 Omicron XBB spike pseudovirus
Experimental: as §1

[11] = target: SARS-CoV-2 early D614G spike pseudovirus
Experimental: as §1

Measured: pseudovirus neutralization IC50

B1: BD58-0480 (protein)
chain 1: EVQLVESGGGLVKPRGSLRLSCAASGFTFSSAWMSWVRQAPGKGLEWVGRIESKTDGGTTDYAAPVKGRFTISRDDSKNTLYLQMNSLKTEDTAVYYCNTGASSGPFYYYGLDVWGQGTTVTVSS
chain 2: QSVLTQPPSASGTPGQRVTISCSGSSSNIGSYYVYWYQQLPGTAPKLLIYSNNQRPSGVPDRFSGSKSGTSASLAISGLRSEDEADYYCAAWDDSLGGLYVFGTGTKVTVL
> 10 mg/L: all assays above

B2: BD58-0529 (protein)
chain 1: QVQLMQSGTEVKKPGASVKVSCKASGYPFTSYGISWVRQAPGQGLEWMGWISPYYGDAKYAEKLQGRATLTTDTSTSTAYMEMTSLTSDDTAVYYCAREGSYYGSGRQNFRDKRRLYYYGMDVWGQGTTVTVSS
chain 2: DIQMTQSPPSLSASVGDRVTITCRASQSISSWLAWYQQKPGKAPKLLIYMASNLESGVPSRFSGGGSGTEFTLTISSLQPDDFATYYCQQYHNSVTFGQGTKVEIK
> 10 mg/L: all assays above

B3: BD58-0553 (protein)
chain 1: QVQLVESGGGVVQPGRSLRLSCAASGLSFSTYAMHWVRQAPGKGLEWVAAISYDGSKKYYADSVKGRFTISRDNSKNTLYLQMNSLRAEETAMYYCASHGCTSATCRRVSNWGSIDYWGQGTLVTVSS
chain 2: QSVLSQAPSASGTPGQGVTISCSGSSSNIGNNYVYWYQQLPGTAPRLLIYRNNQRPSGVPDRFSGSKSGTSASLAISGLRSEDEADYYCATWDDSLSGRVFGGGTKLTVL
> 10 mg/L: all assays above

B4: BD58-0556 (protein)
chain 1: QVQLVESGGGVVQPGRSLRLSCAASGLSFSTYAMHWVRQAPGKGLEWVAAISYDGSKKYYADSVKGRFTISRDNSKNTLYLQMNSLRAEETAMYYCASHGCSSATCRRVSNWGSIDYWGQGTLVTVSS
chain 2: QSVLSQAPSASGTPGQGVTISCSGSSSNIGNNYVYWYQQLPGTAPRLLIYRNNQRPSGVPDRFSGSKSGTSASLAISGLRSEDEADYYCATWDDSLSGRVFGGGTKLTVL
> 10 mg/L: all assays above

B5: BD58-0520 (protein)
chain 1: QVQLVQSGAQVKKPGASVKVSCTASGYTFSNYYIHWVRQAPGQGLEWMGTINPNSGTTSDTRKFQGRVTMTRDTYTRTVYMELSSLRSEDTAVYYCARQALVAVGTGESLDYWGQGTLLTVSS
chain 2: DIQMTQSPSSLSALVGDRVTITCRASQNIRRYFNWYQQTPGKAPKLLIYGTTNLQTGVPSRFSGSGSGTDFTLNISSLQPEDIATYYCQQTYGSPWTFGQGTKVEIK
> 10 mg/L: all assays above
